Laboratory results reported in patent publication US20240285753A1 (DUKE UNIVERSITY, published 2024).

B1: DH1509 (antibody, V domains shown)
VH: QVQLVESGGGVVQPGRSLRLSCAASGFTLSSHGIHWVRQAPGKGLEWVAVTSFDGRNKKFGDSVKGRFTISRDNSKNTVYLQMNSLRTEDTAVYYCAKDWGDDYSRWYFDLWGRGTLVTVSS
VL: DIQMTQSPSSLSASVGDRVTITCQASHDITKYLNWYQQKPGRAPKLLIYDASNLKTGVPSRFSGSGSGTDFTFTITSLQPEDLATYYCQQSDVLPITFGQGTRLEIK
B2: inferred UCA of DH1501.1, DH1501.2 and DH1501.3 (antibody, V domains shown)
VH: QVQLVQSGAEVKKPGASVKVSCKASGYTFTSYYMHWVRQAPGQGLEWMGIINPSGGSTSYAQKFQGRVTMTRDTSTSTVYMELSSLRSEDTAVYYCARMSRYGAFDIWGQGIMVTVSS
VL: not shown

How the values were obtained:
RaTG13 = RaTG13 (coronavirus RaTG13); assay: ELISA, coated spike, mAb titrated
SHC014 = SHC014 (Bat CoV RsSHC014); assay: ELISA, coated spike, mAb titrated
HKU-1 spike (2P) = HKU-1 spike (2P) (human coronavirus HKU1); assay: ELISA, coated antigen, mAb titrated

| Binder | EC50 (read off the curve) (RaTG13) | EC50 (read off the curve) (SHC014) | EC50 (read off the curve) (HKU-1 spike (2P)) |
| --- | --- | --- | --- |
| B1 | ~1 µg/mL | ~1 µg/mL | – |
| B2 | – | – | ~0.03 µg/mL |
